Measured values from several laboratories, pooled; numbers as filed in NIAID ChemDB.

All rows: enzyme or target tests; species: Hepatitis C virus; protein: Nonstructural protein 5B; measure: IC50

Blank or dashed fields: not listed here. ICn: concentration for n% inhibition. Neighbouring rows are from separate reports. Two numbers with a dash give a range or band.

compound | read by | strain or isolate | value
O=C1OC(CCc2ccc(OCc3ccccc3)cc2)(C2CCCC2)CC(O)=C1Sc1nc2[nH]ccc2c(=O)[nH]1 | - | - | <1 µM
CNC(=O)c1c(-c2ccc(F)cc2)oc2cc(C(C)=O)c(C)cc12 | - | - | ≤0.5 µM
COc1cc(OC)c(CCC2(C3CCCC3)CC(O)=C(Sc3nc4ccc(C(=O)O)cc4[nH]3)C(=O)O2)cc1Cl | - | - | <1 µM
COc1c(-c2ccc3cc(NS(C)(=O)=O)ccc3c2)cc(-n2ccc(=O)[nH]c2=O)cc1C(C)(C)C | nucleotide incorporation | GT 4a#1 | 0.9 µM
O=C(O)c1ccc(N2C(=O)C(=Cc3ccc(-c4ccc(Br)cc4)o3)SC2=S)cc1 | - | - | ≤1 µM
O=C1C=C(O)CC(CCCc2ccccc2)(C2CCCC2)O1 | - | - | >50 µM
O=C(O)c1ccc(N2C(=O)C(=Cc3ccc(-c4cc5ccccc5o4)o3)SC2=S)cc1 | - | - | ≤1 µM
CNC(=O)c1c(-c2ccc(F)cc2)oc2cc(OC)c(OC)cc12 | - | - | ≤0.5 µM
O=C(O)CCc1ccc(N2C(=O)C(=Cc3ccc(-c4ccc(Cl)c(Cl)c4)o3)SC2=S)cc1 | - | - | ≤1 µM
CCNc1cc2oc(-c3ccc(F)cc3)c(C(=O)NC)c2c(Cl)c1OC | - | - | ≤0.5 µM
CCN(C1=C(O)C[C@](CCc2ccc(O)cc2)(C2CCCC2)OC1=O)c1ccccc1 | - | - | 1–10 µM
O=C1NC(=S)SC1=Cc1ccc(-c2cc([N+](=O)[O-])ccc2Cl)o1 | - | - | ≤1 µM
O=C1C=C(O)CC(CCCC2CCCCC2)(C2CCCC2)O1 | - | - | 10–50 µM
Cc1ccc(-c2ccc(C=C3SC(=S)NC3=O)s2)cc1 | - | - | ≤1 µM
CNC(=O)c1c(-c2ccc(F)cc2)oc2cc(N(Cc3ccc(C(=O)OC)cc3)S(C)(=O)=O)c(OC(C)C)cc12 | - | - | ≤0.5 µM
COc1cc(OC)c(CCC2(C3CCCC3)CC(=O)CC(=O)O2)cc1Cl | - | - | <1 µM
CNC(=O)c1c(-c2ccc(F)cc2)oc2cc(-c3ncc[nH]3)c(OC)cc12 | - | - | ≤0.5 µM
O=C(O)c1ccc(N2C(=O)C(=Cc3ccc(-c4ccco4)o3)SC2=S)cc1 | - | - | ≤1 µM

A second listing of 3 rows from above:

compound,read by,strain or isolate,value
Cc1ccc(-c2ccc(C=C3SC(=S)NC3=O)s2)cc1,-,-,≤1 µM
O=C(O)c1ccc(N2C(=O)C(=Cc3ccc(-c4cc5ccccc5o4)o3)SC2=S)cc1,-,-,≤1 µM
CNC(=O)c1c(-c2ccc(F)cc2)oc2cc(-c3ncc[nH]3)c(OC)cc12,-,-,≤0.5 µM